A mixed list of measured activities; the numbers were collected in NIAID ChemDB.

Common to all: growth or infection tests; organism: Mycobacterium tuberculosis

MIC bound comes from a single tested concentration. Lines come from different laboratories, so protocols vary. Two numbers with a dash give a range or band. ECn: concentration that inhibits the pathogen or its effect by n%. A number after MIC or MFC names an inhibition level or a share of isolates. Percent inhibition refers to the dose given; in toxicity tests it is the harm to the cells. An empty or dashed field is not shown.

structure	read by	cells	tested at	endpoint	strain or isolate	result
CC(C)=Nc1c(-c2ccccc2)c2cc(Cl)ccc2[nH]c1=O			6.25 µg/mL	inhibition	H37Rv	0%
CC1(C)S[C@@H]2[C@H](NC(=O)[C@H](N)c3ccc(O)cc3)C(=O)N2[C@H]1C(=O)O				MIC	Isolate 2	16 µg/mL
CN(C)C=C1C=CC=C1	BACTEC			MIC bound	H37Rv	>12.5 µg/mL
NNC(=O)c1cc(C2CCCCC2)c2cccc(C3CCCCC3)c2n1	BACTEC		6.25 µg/mL	inhibition	H37Ra	23%
COc1cc2oc(-c3ccc(O)cc3O)c(CC=C(C)C)c(=O)c2c(O)c1/C=C/C(C)C				MIC	EMB-R	>12.5 µg/mL
C=CCNC(=S)Nc1ccc(C(C)=O)cc1				MIC	H37Rv	10 µg/mL
C[C@H]1[C@H](C)Oc2c3c(c4c(c2[C@H]1O)OC(=O)CC4c1ccccc1)OC(C)(C)C=C3	BACTEC		12.5 µg/mL	inhibition	H37Rv	99%
CC(C)c1ccc(NC(=S)c2ccccc2)cc1				MIC	My 331/88	32 µM
Cc1ccc(NC(=O)/C=C/c2ccccc2)cc1Cl	BACTEC		12.5 µg/mL	inhibition	H37Rv	0%
Cn1nnnc1SCC1=C(C(=O)O)N2C(=O)[C@@H](NC(=O)[C@H](O)c3ccccc3)[C@H]2SC1				MIC	16 strains	400–600 µg/mL
O=C1C(=O)N(CCN2CCN(Cc3ccccc3)CC2)c2ccc(-c3ccccc3)cc21				MIC	H37Ra	≤20 µg/mL
Cc1c(N)c(=O)[nH]c2ccccc12				MIC	H37Rv	>6.25 µg/mL
O=C1c2ccccc2-c2c(Br)c3ccccc3c(=O)n21	resazurin		6.25 µg/mL	inhibition	H37Rv	13%
O=C1C(=O)N(CCCCBr)c2c1cccc2-c1ccccc1				MIC	H37Rv	≤20 µg/mL
Cc1cccc(C(=S)Nc2ccc(C(C)C)cc2)c1				MIC	My 331/88	32 µM
C[C@@H](O)[C@H]1C(=O)N2C(C(=O)O)=C(SCCN=CN)C[C@H]12				MIC	Isolate 3	4 µg/mL
NC(=O)c1cnccn1				MIC		5–10 µg/mL
Cc1c(CN2CCN(C)CC2)cc(-c2ccc(F)cc2)n1-c1ccccc1Cl				MIC		2 µg/mL
Fc1c(F)c(F)c(Cn2cc(Cn3c4ccccc4c4ccccc43)nn2)c(F)c1F	agar			MIC	H37Rv	6.25 µg/mL
Cn1c(N2CCN(CCO)CC2)nc2c1c(=O)n(CC(O)CN1CCN(CCO)CC1)c(=O)n2C	BACTEC			MIC bound	H37Rv	>12.8 µg/mL
Nc1c(-c2ccccc2)c2cc(Cl)ccc2[nH]c1=O				EC50	H37Rv	>6.25 µg/mL
NNC(=O)c1cc2ccccc2nc1C12CC3CC(CC(C3)C1)C2	BACTEC			MIC	H37Ra	>6.25 µg/mL
CO[C@H]1[C@@H](O)[C@H](n2ccc(=O)[nH]c2=O)O[C@@H]1[C@@H](O[C@H]1OC(C(=O)N[C@H]2CCC[C@@H](C)NC2=O)=C[C@H](O)[C@@H]1O)C(N)=O	broth dilution			MIC	H37Rv	8 µg/mL
NNC(=O)Cc1ccnc2ccccc12	BACTEC		6.25 µg/mL	inhibition	H37Ra	9%
CCCCN1C(=O)C(=O)c2cccc(-c3ccccc3)c21				MIC	H37Ra	≤20 µg/mL
CN(C)c1ccc2nc3ccc(=[N+](C)C)cc-3sc2c1	BACTEC		12.5 µg/mL	inhibition	H37Rv	9%
CCCCCCCN1C(=O)C(=O)c2cccc(-c3ccccc3)c21				MIC	H37Ra	≤20 µg/mL
Cc1c(CN2CCSCC2)cc(-c2ccccc2)n1-c1cccc2ccccc12				MIC		>16 µg/mL
O=C1C2=C(c3ccccc31)C(c1ccc([N+](=O)[O-])cc1)NC(=S)N2		VERO		MIC	H37Rv	6.25 µg/mL
Cc1cc(C2=NOC(c3ccc(Cl)cc3)C2)ccc1O				MIC	H37R (MTB)	0.83 µM
Cc1c(CN2CCSCC2)cc(-c2ccccc2F)n1-c1cccc2ccccc12				MIC		4 µg/mL
CC(C)[C@H]1CC[C@H]2[C@@H]3C=C[C@](C)(O)CC[C@]3(C)CC[C@]12CO	visual reading / absorbance			MIC	H37Rv	20.4 µM
COc1cc(Cn2cc(Cn3c4ccccc4c4ccccc43)nn2)cc(OC)c1OC	agar			MIC	H37Rv	12.5 µg/mL
COC(=O)N/N=C/c1oc(-c2ccccc2)c(-c2ccccc2)c1[N+](=O)[O-]	BACTEC		12.5 µg/mL	inhibition	H37Rv	-8%
CNC(=S)Nc1ccc(/C(C)=N/O)cc1				MIC	H37Rv	0.156 µg/mL
Nc1ccc(C(=O)O)c(O)c1				MIC		1–2 µg/mL
O=[N+]([O-])c1ccc(-n2cc(Cn3c4ccccc4c4ccccc43)nn2)cc1	agar			MIC	H37Rv	25 µg/mL
O=C1C(=O)N(CCC2CCN(Cc3ccccc3)CC2)c2ccc(C3CCCCC3)cc21				MIC	H37Ra	≤20 µg/mL
NNC(=O)Cc1cc(C2CCCCC2)nc2c(C3CCCCC3)cccc12	BACTEC			MIC	H37Ra	>6.25 µg/mL
COc1cccc(C(c2ccc(OCCN(C)C)cc2)c2cc3ccccc3c3ccccc23)c1				MIC	H37Rv	>25 µg/mL
CC1=CC[C@]2(C)CC[C@]3(C=O)[C@@H](C(C)C)CC[C@H]3[C@@H]2C=C1	visual reading / absorbance			MIC	H37Rv	10.9 µM
CSc1nc(Nc2ccccc2Cl)cc(C(=O)O)n1	BACTEC		12.5 µg/mL	inhibition	H37Rv	0%
CCN(CC)C(=O)c1cc(C2C3CC4CC(C3)CC2C4)c2ccccc2n1	BACTEC			MIC	H37Ra	>6.25 µg/mL
CCn1c2ccccc2c2cc(-n3cc(Cn4c5ccccc5c5ccccc54)nn3)ccc21	agar			MIC	H37Rv	25 µg/mL
O=C1CCS(=O)(=O)C(=O)N1c1ccccc1	resazurin			MIC bound	H37Rv	>6.25 µg/mL
COc1ccc(-n2cc(Cn3c4ccccc4c4ccccc43)nn2)cc1	agar			MIC	H37Rv	50 µg/mL
O=C1C(=O)N(CCN2CCN(Cc3ccccc3)CC2)c2c1cccc2C1CCCCC1				MIC	H37Ra	≤20 µg/mL
CC1COc2c(N3CCN(C)CC3)c(F)cc3c(=O)c(C(=O)O)cn1c23				MIC	900233	0.5 µg/mL
C[C@H]1COc2c(N3CCN(C)CC3)c(F)cc3c(=O)c(C(=O)O)cn1c23				MIC		0.25–0.5 µg/mL
NO				MIC90	H37Rv	17.5 µg/mL
O=[N+]([O-])c1ccc(Cn2cc(Cn3c4ccccc4c4ccccc43)nn2)c(Cl)c1	agar			MIC	H37Rv	25 µg/mL
COC(=O)c1oc(-c2ccccc2)c(-c2ccccc2)c1C(=O)OC	BACTEC			MIC bound	H37Rv	>12.5 µg/mL
CC1=CC[C@]2(C)CC[C@]3(C(=O)O)[C@@H](C(C)C)CC[C@H]3[C@@H]2C=C1	visual reading / absorbance			MIC	H37Rv	165.3 µM
CC(=O)Nc1c(-c2ccccc2)c2cc(Cl)ccc2n(C)c1=O			6.25 µg/mL	inhibition	H37Rv	0%
CCN(CCCCN1C(=O)C(=O)c2ccccc21)Cc1ccccc1				MIC	H37Ra	≤20 µg/mL
C/C(=N/NC(=S)N1CCC(c2ccccc2)CC1)c1nccnc1C				MIC	CS-R	1.6 µg/mL
NC(=O)c1cnccn1	agar			MIC	H37Rv	50 µg/mL
CCC(=O)c1ccc(NC(=S)NC)cc1				MIC	H37Rv	5 µg/mL
Cc1cc(C2CCCC2)nc2c(C3CCCC3)cccc12	BACTEC		6.25 µg/mL	inhibition	H37Ra	100%
Fc1cccc(Cl)c1Cn1cc(Cn2c3ccccc3c3ccccc32)nn1	agar			MIC	H37Rv	12.5 µg/mL
CCCCCCCCCCN1C(=O)C(=O)c2cccc(-c3ccccc3)c21				MIC	H37Rv	≤20 µg/mL
CC1=C\[C@H](O)CC(=O)Cc2nc(co2)C(=O)N2CCC=C2C(=O)O[C@@H](C(C)C)[C@@H](C)/C=C/C(=O)NC\C=C\1	BACTEC		12.5 µg/mL	inhibition	H37Rv	9%
Cc1c(CN2CCSCC2)cc(-c2ccccc2F)n1-c1ccccc1				MIC		4 µg/mL
CC(=O)Nc1c(C)c2ccccc2[nH]c1=O				EC50	H37Rv	>6.25 µg/mL
CCCNC(=O)c1cc(C2C3CC4CC(C3)CC2C4)c2ccccc2n1	BACTEC		6.25 µg/mL	inhibition	H37Ra	3%
COc1ccc(/C(=C(\CC(=O)O)C(=O)OC(C)(C)C)c2cc(OC)c(OC)c(OC)c2)cc1OC	BACTEC		12.5 µg/mL	inhibition	H37Rv	0%
Cc1cc(C2=NOC(c3ccc(Br)cc3)C2)ccc1O				MIC	H37R (MTB)	0.62 µM
Cc1nc2c(-c3ccccc3)c3cc(Cl)ccc3nc2o1			6.25 µg/mL	inhibition	H37Rv	0%
Cc1ccc(-c2cc(CN3CCSCC3)c(C)n2-c2ccc(F)cc2)cc1				MIC	H37Rv	0.5 µg/mL
CO/N=C(\C(=O)N[C@@H]1C(=O)N2C(C(=O)O)=C(CSc3nc(=O)c(=O)[nH]n3C)CS[C@H]12)c1csc(N)n1				MIC	16 strains	800–1600 µg/mL
COc1cc(C2CC(c3ccc(O)c(C)c3)=NO2)cc(OC)c1OC				MIC	INH-resistant M. tuberculosis	>6.25 µM
CC(=O)NC[C@H]1CN(c2cc(F)c(N3CC4NC(=O)NC4C3)c(F)c2)C(=O)O1	resazurin			MIC100	H37Rv	0.31 µM
Cn1ncc2c(N(N)CCO)nc(-c3ccc([N+](=O)[O-])o3)nc21	BACTEC		12.5 µg/mL	inhibition	H37Rv	100%
Cc1c(CN2CCSCC2)cc(-c2ccccc2Cl)n1-c1ccccc1F				MIC		4 µg/mL
CC(=O)NC[C@H]1CN(c2ccc(N3C[C@@H]4OC(=O)N[C@@H]4C3)c(F)c2)C(=O)O1	resazurin			MIC100	H37Rv	0.625 µM
COc1cccc(C(=S)Nc2ccc(C(C)C)cc2)c1				MIC	My 331/88	32 µM
CCCc1c(O)ccc(O)c1CO	resazurin			MIC	H37Rv	25 µg/mL
Cc1cc2cc3c(=O)[nH]c(=O)cc-3n(CC(O)C(O)C(O)CO)c2cc1C	BACTEC			MIC	H37Rv	6.25 µg/mL
CC1(C)[C@H](C(=O)O)N2C(=O)C[C@H]2S1(=O)=O				MIC	H37Rv	>16 µg/mL
NNC(=O)c1cc(C2C3CC4CC(C3)CC2C4)c2ccccc2n1	BACTEC			MIC	H37Ra	6.25 µg/mL
CC(=O)NC[C@H]1CN(c2cc(F)c(N3C[C@@H]4OC(=O)N(C)[C@@H]4C3)c(F)c2)C(=O)O1	resazurin			MIC100	H37Rv	0.62 µM
Cn1ccn(C)c1=S	BACTEC		12.5 µg/mL	inhibition	H37Rv	0%
CCCCc1ccc(NC(=S)c2cccc(C)c2)cc1				MIC	My 331/88	32 µM
COC1(CO)C(=O)N(C)CC(=O)N1C	BACTEC		12.5 µg/mL	inhibition	H37Rv	99%
CC(C)c1ccc(NC(=S)c2cccc([N+](=O)[O-])c2)cc1				MIC	My 331/88	16 µM
CCNCC(=O)Nc1ccc(C)c(Cl)c1.Cl	BACTEC			MIC bound	H37Rv	>12.5 µg/mL
CC1=CC[C@]2(C)CC[C@]3(CO)[C@@H](C(C)C)CC[C@H]3[C@@H]2C=C1	visual reading / absorbance			MIC	H37Rv	5.4 µM
CC1COc2c(N3CCN(C)CC3)c(F)cc3c(=O)c(C(=O)O)cn1c23				MIC		0.5–1 µg/mL
CCCc1cc(=O)oc2c3c(c4c(c12)OC(C)(C)C=C4)O[C@H](C)[C@@H](C)C3=O				MIC bound	H37Rv	>6.25 µg/mL
CO[C@@]1(NC(=O)Cc2cccs2)C(=O)N2C(C(=O)O)=C(COC(N)=O)CS[C@@H]21				MIC	Isolate 4	>16 µg/mL

Repeating the final 8 entries:

structure,read by,cells,tested at,endpoint,strain or isolate,result
CCCCc1ccc(NC(=S)c2cccc(C)c2)cc1,,,,MIC,My 331/88,32 µM
COC1(CO)C(=O)N(C)CC(=O)N1C,BACTEC,,12.5 µg/mL,inhibition,H37Rv,99%
CC(C)c1ccc(NC(=S)c2cccc([N+](=O)[O-])c2)cc1,,,,MIC,My 331/88,16 µM
CCNCC(=O)Nc1ccc(C)c(Cl)c1.Cl,BACTEC,,,MIC bound,H37Rv,>12.5 µg/mL
CC1=CC[C@]2(C)CC[C@]3(CO)[C@@H](C(C)C)CC[C@H]3[C@@H]2C=C1,visual reading / absorbance,,,MIC,H37Rv,5.4 µM
CC1COc2c(N3CCN(C)CC3)c(F)cc3c(=O)c(C(=O)O)cn1c23,,,,MIC,,0.5–1 µg/mL
CCCc1cc(=O)oc2c3c(c4c(c12)OC(C)(C)C=C4)O[C@H](C)[C@@H](C)C3=O,,,,MIC bound,H37Rv,>6.25 µg/mL
CO[C@@]1(NC(=O)Cc2cccs2)C(=O)N2C(C(=O)O)=C(COC(N)=O)CS[C@@H]21,,,,MIC,Isolate 4,>16 µg/mL